Among the data in article PMC2693028 (ChemMedChem, 2008) are EC50/MIC ratio and MBC/MIC values, retold here.

One data set deals with HeLa cells. The following applies: human.
In data set [1] the test system is Listeria monocytogenes (10403S). It is filed as cell-based.
The subject of data set [2] is Enterococcus fecalis (ATCC strain 29212). Type of data set: cell-based.
Data set [3] relates to vancomycin–resistant Enterococcus (VRE) (ATCC strain 51299). Type of data set: cell-based.
Data set [4] concerns Klebsiella pneumoniae (ATCC strain 700603). It is filed as cell-based.
Data set [5] relates to Sterne strain B. anthracis. It is filed as cell-based, Bacillus anthracis.
For data set [6], the system named is methicillin–resistant Staphylococcus aureus (ATCC strain 43300). It is filed as cell-based.
A further data set concerns ΔANR B. anthracis. Type of data set: cell-based, Bacillus anthracis.
Data set [7] relates to Escherchia coli (ATCC strain 25922). It is filed as cell-based.

Values joined by “and” are separate entries in the source; they are usually repeats but may differ in a detail not shown here. Equal entries are not always repeated.

On to `O=[N+]([O-])c1ccc(Oc2ccc(Cl)cc2O)c(Cl)c1` [Compound 6, 5-Chloro-2-(2-chloro-4-nitrophenoxy)phenol], for which, in the data set with HeLa cells, the EC50/MIC ratio is 15–20. Further, the MBC/MIC in [1] is 5.0; in data set [2], 7.1; in data set [3] it was 6.6; in [4], 7.1; in data set [5], 2.1; in [6], 1.6–1.9 and 1.6. For the same molecule, the MBC/MIC with ΔANR B. anthracis stood at 1.4; in data set [7], 48.0.
